The target in the test is Bacillus anthracis protective antigen (PA) (Bacillus anthracis) (UniProt P13423).

The substance “NlpA-[Dig scFv] (26-10 anti-digoxin/digoxigenin scFv fused to the NlpA anchor) (from UniProt P04846 24-29)” showed a M (mean fluorescence) of 2.97.
